Compound potency records, mixed from different reports. Data source: NIAID ChemDB in PubChem.

All rows: tests in culture; agent: Mycobacterium avium complex

Neighbouring rows are from separate reports. Two numbers with a dash give a range or band. A number after MIC or MFC names an inhibition level or a share of isolates.

structure	strain or isolate	read-out	value
Cc1c(CNc2cccc3c2CCCC3)cnc2nc(N)nc(N)c12	NJ211	MIC	≤0.13 µg/mL
CCCCCCCCC(=O)O[C@H]1[C@H](C)[C@@H](O[C@@H]2O[C@H](C)C[C@H](N(C)C)[C@H]2O)C(C)(O)C[C@@H](C)/C(=N\OCCCOc2ccccc2)[C@H](C)[C@@H](O)[C@](C)(O)[C@@H](CC)OC(=O)[C@@H]1C	20096 (clarithromycin-resistant)	MIC	12.5 µg/mL
OCCN=c1ssc2ccccc12	ISS 486	MIC	4 µg/mL
CO[C@H]1/C=C/O[C@@]2(C)Oc3c(C)c(O)c4c(O)c(c5c(c4c3C2=O)NC2(CCN(CC(C)C)CC2)N=5)=NC(=O)/C(C)=C\C=C\[C@H](C)[C@H](O)[C@@H](C)[C@@H](O)[C@@H](C)[C@H](OC(C)=O)[C@@H]1C	F	MIC	0.125 µg/mL
CCNC(=O)OCCn1sc2ccccc2c1=S	AN1	MIC	4 µg/mL
CO[C@H]1/C=C/O[C@@]2(C)Oc3c(C)c(O)c4c(O)c(c5c(c4c3C2=O)NC2(CCN(CC(C)C)CC2)N=5)=NC(=O)/C(C)=C\C=C\[C@H](C)[C@H](O)[C@@H](C)[C@@H](O)[C@@H](C)[C@H](OC(C)=O)[C@@H]1C	CIPT 140310003 (smooth)	MIC	0.1 µg/mL
O=C1c2cc(Cl)ccc2-n2c1nc1cc(N3CCCCC3)ccc1c2=O	19075	MIC	0.5 µg/mL
Cc1onc(-c2ccccc2Cl)c1C(=O)N[C@@H]1C(=O)N2[C@@H]1SC(C)(C)[C@@H]2C(=O)O	CIPT 140310003 (smooth)	MIC	100 µg/mL
COc1cc(-c2ccccc2)ccc1NCc1cnc2nc(N)nc(N)c2c1C	NJ3404	MIC	≤0.13 µg/mL
CC[C@H]1OC(=O)[C@H](C)[C@@H](OC(=O)Cc2ccc[nH]2)[C@H](C)[C@@H](O[C@@H]2O[C@H](C)C[C@H](N(C)C)[C@H]2O)C(C)(O)C[C@@H](C)/C(=N\OCCCOc2ccccc2)[C@H](C)[C@@H](O)[C@]1(C)O	20039 (clarithromycin-susceptible)	MIC	1.56 µg/mL
COc1ccc(C(F)(F)F)cc1NCc1cnc2nc(N)nc(N)c2c1C	NJ3404	MIC	≤0.13 µg/mL
C[C@@H]1CN(c2c(F)c(N)c3c(=O)c(C(=O)O)cn(C4CC4)c3c2F)C[C@H](C)N1	Isolate 90-1253	MIC	0.5 µg/mL
OCCn1sc2ccccc2c1=S	ATCC 15769	MIC	8 µg/mL
CC(C)N=c1cc2n(-c3ccc(Cl)cc3)c3ccccc3nc-2cc1Nc1ccc(Cl)cc1	1017	MIC	0.125 µg/mL
Cc1cccc2nc3n(c(=O)c12)-c1ccccc1C3=O	19075	MIC	5 µg/mL
CC(C)NC(=O)OCCN=c1ssc2ccccc12	ISS 486	MIC	4 µg/mL
O=C1c2cc(Cl)ccc2-n2c1nc1ccncc1c2=O	101	MIC	<0.2 µg/mL
CC(C)(C)NC(=O)OCCn1sc2ccccc2c1=S	ATCC 15769	MIC	8 µg/mL
O=C1c2ccccc2-n2c1nc1ncccc1c2=O	101	MIC	5 µg/mL
CCCCNC(=O)OCCn1sc2ccccc2c1=S	AN1	MIC	2 µg/mL
Cc1c(CNc2ccc(OC(F)F)cc2)cnc2nc(N)nc(N)c12	NJ211	MIC	≤0.13 µg/mL
CN1CCN(CCCN=c2cc3n(-c4ccc(Cl)cc4)c4ccccc4nc-3cc2Nc2ccccc2)CC1	10 strains (HIV+)	MIC50	0.45 µg/mL
CCc1nc(N)nc(N)c1-c1ccc(Cl)cc1	DW30	MIC	32 µg/mL
CN[C@@H]1[C@H](O[C@H]2[C@H](O[C@H]3[C@H](O)[C@@H](O)[C@H](N=C(N)N)[C@@H](O)[C@@H]3N=C(N)N)O[C@@H](C)[C@]2(O)C=O)O[C@@H](CO)[C@H](O)[C@H]1O	CIPT 140310002	MIC	5 µg/mL
O=C1c2ccc(Cl)cc2-n2c1nc1ncccc1c2=O	19075	MIC	25 µg/mL
NNC(=O)c1ccncc1	13884	MIC	0.4–0.63 µg/mL
COc1ccc(C(F)(F)F)cc1N(C)Cc1cnc2nc(N)nc(N)c2c1C	NJ3404	MIC	≤0.13 µg/mL
CC(=O)Nc1ccc(/C(C)=N\NC(N)=S)cc1	108	MIC	32 µg/mL
O=C1c2ccccc2-n2c1nc1ccc(F)cc1c2=O	19075	MIC	1 µg/mL
CCCCC(=O)O[C@H]1[C@H](C)[C@@H](O[C@@H]2O[C@H](C)C[C@H](N(C)C)[C@H]2O)C(C)(O)C[C@@H](C)/C(=N\OCCCOc2ccccc2)[C@H](C)[C@@H](O)[C@](C)(O)[C@@H](CC)OC(=O)[C@@H]1C	20039 (clarithromycin-susceptible)	MIC	3.13 µg/mL
NC[C@H]1O[C@H](O[C@H]2[C@H](O)[C@@H](O[C@H]3O[C@H](CO)[C@@H](O)[C@H](N)[C@H]3O)[C@H](N)C[C@@H]2N)[C@H](O)[C@@H](O)[C@@H]1O	CIPT 140310005	MIC	5 µg/mL
CC(C)NC(=O)OCCn1sc2ccccc2c1=O	AN2	MIC	>32 µg/mL
COc1cccc2c(=O)n3c(nc12)C(=O)c1cc(F)ccc1-3	19075	MIC	1 µg/mL
CC(C)N=C(N)/N=C(\N)NOCCCOc1cc(Cl)c(Cl)cc1Cl	31 strains	MIC90	32 µg/mL
CC[C@H]1OC(=O)[C@H](C)[C@@H](O[C@H]2C[C@@](C)(OC)[C@@H](OC(C)=O)[C@H](C)O2)[C@H](C)[C@@H](O[C@@H]2O[C@H](C)C[C@H](N(C)C)[C@H]2O)C(C)(O)C[C@@H](C)/C(=N\OCCN(C)c2ccccc2)[C@H](C)[C@@H](O)[C@]1(C)O	20039 (clarithromycin-susceptible)	MIC	1.56 µg/mL
CC[C@H]1OC(=O)[C@H](C)[C@@H](O[C@H]2C[C@@](C)(OC)[C@@H](O)[C@H](C)O2)[C@H](C)[C@@H](O[C@@H]2O[C@H](C)C[C@H](N(C)C)[C@H]2O)[C@](C)(OC)C[C@@H](C)C(=O)[C@H](C)[C@@H](O)[C@]1(C)O	LA-1	MIC	4 µg/mL
CC(C)NC(=O)OCCn1sc2ccccc2c1=S	AN2	MIC	4 µg/mL
CC1(C)N=C(N)N=C(N)N1OCCCOc1cc(Cl)c(Cl)cc1Cl	DW10	MIC	2 µg/mL
Cc1c(CNc2ccc3ccccc3c2)cnc2nc(N)nc(N)c12	NJ168	MIC	≤0.13 µg/mL

The first 5 rows once more:

{"structure": "Cc1c(CNc2cccc3c2CCCC3)cnc2nc(N)nc(N)c12", "strain or isolate": "NJ211", "read-out": "MIC", "value": "≤0.13 µg/mL"}
{"structure": "CCCCCCCCC(=O)O[C@H]1[C@H](C)[C@@H](O[C@@H]2O[C@H](C)C[C@H](N(C)C)[C@H]2O)C(C)(O)C[C@@H](C)/C(=N\\OCCCOc2ccccc2)[C@H](C)[C@@H](O)[C@](C)(O)[C@@H](CC)OC(=O)[C@@H]1C", "strain or isolate": "20096 (clarithromycin-resistant)", "read-out": "MIC", "value": "12.5 µg/mL"}
{"structure": "OCCN=c1ssc2ccccc12", "strain or isolate": "ISS 486", "read-out": "MIC", "value": "4 µg/mL"}
{"structure": "CO[C@H]1/C=C/O[C@@]2(C)Oc3c(C)c(O)c4c(O)c(c5c(c4c3C2=O)NC2(CCN(CC(C)C)CC2)N=5)=NC(=O)/C(C)=C\\C=C\\[C@H](C)[C@H](O)[C@@H](C)[C@@H](O)[C@@H](C)[C@H](OC(C)=O)[C@@H]1C", "strain or isolate": "F", "read-out": "MIC", "value": "0.125 µg/mL"}
{"structure": "CCNC(=O)OCCn1sc2ccccc2c1=S", "strain or isolate": "AN1", "read-out": "MIC", "value": "4 µg/mL"}